# Share of PSTVd loop 15 variants by leaf site

Region: loop 15 of PSTVd (intermediate strain), upper and lower strand joined, each 5' to 3', the first 7 letters being the upper strand, closing pairs included. Wild type: GGAAACCGCUACUAC. Varied positions (N): GGAAACCGNNNNNNC.

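A pool of all variants was put on leaves of three Nicotiana benthamiana plants. Progeny were sequenced from the inoculated region (day 5), the margin of the inoculated leaf (day 10) and systemic leaves (day 12).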

Numbers give reads per thousand; 0 = not seen among the reads, higher = more abundant. Each site shows the three plants. "Pool" is the share in the plasmid pool used as inoculum, on the same scale. The inoculated region was read from the minus strand, the other sites from the plus strand. Sequences that differ at fixed positions probably stem from PCR or sequencing errors, and defective variants can be carried along by functional ones. Samples held 43,870 to 66,106 reads, so the smallest values rest on one or two reads. Wild type was 33.9 per thousand in the pool and the most common sequence in every sample (inoculated region 202, 200, 159; leaf margin 724, 746, 710; systemic leaves 856, 883, 880).

| sequence | pool | inoculated region | leaf margin | systemic leaves |
|---|---|---|---|---|
| GGAAACCGAAAGCUC | 0.288 | 0.0655 / 0.0482 / 0.0571 | 0.0162 / 0 / 0 | 0 / 0 / 0 |
| GGAAACCGAACCAAC | 0.272 | 0.0983 / 0.129 / 0.0381 | 0 / 0.0223 / 0 | 0 / 0 / 0 |
| GGAAACCGAAGAAAC | 0.240 | 0.197 / 0.129 / 0.0952 | 0 / 0 / 0 | 0 / 0 / 0 |
| GGAAACCGAAUUUGC | 0.272 | 0.115 / 0.0643 / 0.0762 | 0 / 0 / 0.0401 | 0 / 0 / 0 |
| GGAAACCGACACACC | 0.192 | 0.0819 / 0.177 / 0.0952 | 0.0162 / 0.0223 / 0.0200 | 0 / 0 / 0 |
| GGAAACCGACCGAUC | 0.160 | 0.393 / 0.337 / 0.419 | 0.178 / 0.0668 / 0.140 | 0.0322 / 0 / 0.114 |
| GGAAACCGACGCACC | 0.256 | 0.0328 / 0.0803 / 0.0762 | 0.0162 / 0 / 0.0200 | 0 / 0 / 0 |
| GGAAACCGACGGCUC | 0.240 | 0.147 / 0.241 / 0.114 | 0.0162 / 0.0223 / 0.0401 | 0 / 0 / 0 |
| GGAAACCGAGAACCC | 0.288 | 0.147 / 0.112 / 0.0381 | 0 / 0 / 0 | 0 / 0 / 0 |
| GGAAACCGAGUUGGC | 0.224 | 0.115 / 0.112 / 0.114 | 0 / 0 / 0.0200 | 0 / 0 / 0 |
| GGAAACCGAUAACGC | 0.208 | 0.0655 / 0.0964 / 0.171 | 0.0162 / 0.0223 / 0 | 0 / 0 / 0 |
| GGAAACCGAUAGUGC | 0.320 | 0.328 / 0.193 / 0.209 | 0.0970 / 0.134 / 0.180 | 0.0644 / 0.0756 / 0.0684 |
| GGAAACCGAUCGGAC | 0.240 | 0.328 / 0.289 / 0.400 | 0.162 / 0.0668 / 0.180 | 0.113 / 0 / 0 |
| GGAAACCGAUGGUAC | 0.224 | 0.328 / 0.386 / 0.324 | 0.0970 / 0.0445 / 0.0801 | 0.0161 / 0.0303 / 0.0912 |
| GGAAACCGCAGAUGC | 0.240 | 0.164 / 0.129 / 0.190 | 0.0162 / 0 / 0 | 0.0161 / 0.0151 / 0 |
| GGAAACCGCAUAAUC | 0.240 | 0.246 / 0.129 / 0.171 | 0 / 0 / 0.0200 | 0 / 0 / 0 |
| GGAAACCGCAUGCUC | 0.224 | 0.0983 / 0.0964 / 0.0762 | 0 / 0 / 0.0200 | 0 / 0 / 0 |
| GGAAACCGCGAGAGC | 0.320 | 0.311 / 0.305 / 0.419 | 0.113 / 0.156 / 0.140 | 0.0322 / 0 / 0 |
| GGAAACCGCGAUAUC | 0.272 | 0.328 / 0.273 / 0.628 | 0.113 / 0.134 / 0.180 | 0.0483 / 0.0303 / 0.0228 |
| GGAAACCGCGUGUAC | 0.160 | 0.278 / 0.289 / 0.381 | 0.146 / 0.111 / 0.160 | 0.0322 / 0.0303 / 0.0456 |
| GGAAACCGCUAGGUC | 0.192 | 0.524 / 0.434 / 0.628 | 0.162 / 0.0445 / 0.180 | 0.113 / 0.0454 / 0.0456 |
| GGAAACCGCUCGCUC | 0.256 | 0.131 / 0.129 / 0.228 | 0 / 0.0223 / 0.0200 | 0 / 0 / 0.0228 |
| GGAAACCGCUUUAGC | 0.272 | 0.0819 / 0.0643 / 0.0571 | 0 / 0.0223 / 0.0200 | 0 / 0 / 0 |
| GGAAACCGGACUCAC | 0.208 | 0.0819 / 0.129 / 0.209 | 0 / 0.557 / 0.0601 | 0 / 0 / 0 |
| GGAAACCGGACUUCC | 0.288 | 0.180 / 0.112 / 0.0571 | 0 / 0 / 0 | 0.0161 / 0 / 0 |
| GGAAACCGGAUGAUC | 0.448 | 0.115 / 0.0643 / 0.0190 | 0 / 0 / 0.0200 | 0 / 0 / 0 |
| GGAAACCGGCAGCCC | 0.336 | 0.147 / 0.161 / 0.114 | 0.0162 / 0.0223 / 0.0200 | 0 / 0 / 0 |
| GGAAACCGGCGACAC | 0.192 | 0.164 / 0.112 / 0.0762 | 0 / 0.0223 / 0.0200 | 0 / 0 / 0.0228 |
| GGAAACCGGCGAGCC | 0.192 | 0.115 / 0.129 / 0.0190 | 0.0162 / 0 / 0 | 0 / 0 / 0 |
| GGAAACCGGCGUUUC | 0.208 | 0.0819 / 0.0643 / 0.0762 | 0 / 0 / 0.0200 | 0 / 0 / 0 |
| GGAAACCGGGAAACC | 0.304 | 0.131 / 0.112 / 0.171 | 0.0162 / 0.0223 / 0.0401 | 0 / 0 / 0 |
| GGAAACCGGGCACGC | 0.192 | 0.0491 / 0.0964 / 0.0952 | 0 / 0 / 0.0200 | 0 / 0 / 0 |
| GGAAACCGGGCGAUC | 0.256 | 0.115 / 0.112 / 0.114 | 0 / 0 / 0 | 0.0161 / 0 / 0 |
| GGAAACCGGGCUUCC | 0.240 | 0.131 / 0.0964 / 0.0952 | 0.0162 / 0 / 0.0200 | 0 / 0 / 0 |
| GGAAACCGGGUCCCC | 0.144 | 0.147 / 0.161 / 0.114 | 0.0162 / 0.0445 / 0.0401 | 0 / 0 / 0 |
| GGAAACCGGUAGCCC | 0.192 | 0.0655 / 0.129 / 0.0571 | 0 / 0 / 0 | 0 / 0 / 0 |
| GGAAACCGGUCGAGC | 0.176 | 0.115 / 0.0321 / 0.0381 | 0.0323 / 0 / 0 | 0 / 0 / 0.0228 |
| GGAAACCGGUGCAAC | 0.272 | 0.164 / 0.0964 / 0.133 | 0.0162 / 0.0223 / 0 | 0 / 0 / 0 |
| GGAAACCGGUUACCC | 0.160 | 0.0983 / 0.0643 / 0.0762 | 0.0162 / 0 / 0 | 0 / 0 / 0 |
| GGAAACCGUAACUAC | 0.128 | 0.262 / 0.305 / 0.305 | 0.0970 / 0.111 / 0.140 | 0.0161 / 0 / 0.0456 |
| GGAAACCGUACGGCC | 0.320 | 0.197 / 0.0482 / 0.114 | 0 / 0.0445 / 0 | 0 / 0 / 0 |
| GGAAACCGUAGACUC | 0.160 | 0.0655 / 0.0482 / 0.0571 | 0.0162 / 0 / 0 | 0.0161 / 0 / 0 |
| GGAAACCGUCACUCC | 0.272 | 0.328 / 0.257 / 0.228 | 0.113 / 0.134 / 0.120 | 0.0966 / 0 / 0 |
| GGAAACCGUCAUGAC | 0.224 | 0.0491 / 0.145 / 0.0952 | 0 / 0 / 0.0601 | 0 / 0 / 0 |
| GGAAACCGUCCAGUC | 0.240 | 0.131 / 0.129 / 0.0381 | 0 / 0 / 0.0401 | 0 / 0 / 0 |
| GGAAACCGUCCCCAC | 0.336 | 0.0819 / 0.0643 / 0.114 | 0 / 0 / 0.0200 | 0.0161 / 0 / 0 |
| GGAAACCGUCCCUUC | 0.320 | 0.360 / 0.273 / 0.476 | 0.178 / 0.0445 / 0.200 | 0.0161 / 0 / 0 |
| GGAAACCGUCCGCCC | 0.320 | 0.0655 / 0.0482 / 0.0762 | 0 / 0.0445 / 0 | 0.0161 / 0 / 0 |
| GGAAACCGUGACCAC | 0.320 | 0.573 / 0.434 / 0.362 | 0.210 / 0.156 / 0.120 | 0.0483 / 0.0605 / 0.0912 |
| GGAAACCGUGGCCGC | 0.320 | 0.131 / 0.145 / 0.0571 | 0 / 0 / 0.0200 | 0 / 0 / 0 |
| GGAAACCGUGGUUAC | 0.256 | 0.328 / 0.289 / 0.133 | 0.0970 / 0.0668 / 0.180 | 0.0805 / 0.0454 / 0.114 |
| GGAAACCGUUAGCGC | 0.208 | 0.278 / 0.289 / 0.419 | 0.178 / 0.200 / 0.180 | 0.0966 / 0 / 0 |
| GGAAACCGUUCAUCC | 0.160 | 0.0819 / 0.112 / 0.0952 | 0 / 0 / 0.0200 | 0 / 0 / 0 |
| GGAAACCGUUCCGUC | 0.224 | 0.131 / 0.112 / 0.0952 | 0 / 0 / 0.0401 | 0.0161 / 0 / 0 |
| GGAAACCGUUGGAUC | 0.320 | 0.180 / 0.0803 / 0.0762 | 0.0323 / 0 / 0.0200 | 0 / 0 / 0 |
| GGAAACCGUUGUGCC | 0.272 | 0.0819 / 0.0643 / 0 | 0 / 0 / 0.0401 | 0 / 0 / 0 |
| GGAAACCGUUUAUAC | 0.208 | 0.328 / 0.209 / 0.400 | 0.0485 / 0.111 / 0.100 | 0.0644 / 0.0303 / 0.137 |
| GGAAACCGUUUAUCC | 0.128 | 0.0819 / 0.0964 / 0.0762 | 0 / 0.0223 / 0.0200 | 0 / 0 / 0 |

A selection of 6 entries from above:

* GGAAACCGAGAACCC (pool 0.288) -> inoculated region 0.147 / 0.112 / 0.0381; leaf margin 0 / 0 / 0; systemic leaves 0 / 0 / 0
* GGAAACCGGGUCCCC (pool 0.144) -> inoculated region 0.147 / 0.161 / 0.114; leaf margin 0.0162 / 0.0445 / 0.0401; systemic leaves 0 / 0 / 0
* GGAAACCGGGCUUCC (pool 0.240) -> inoculated region 0.131 / 0.0964 / 0.0952; leaf margin 0.0162 / 0 / 0.0200; systemic leaves 0 / 0 / 0
* GGAAACCGUAACUAC (pool 0.128) -> inoculated region 0.262 / 0.305 / 0.305; leaf margin 0.0970 / 0.111 / 0.140; systemic leaves 0.0161 / 0 / 0.0456
* GGAAACCGACGGCUC (pool 0.240) -> inoculated region 0.147 / 0.241 / 0.114; leaf margin 0.0162 / 0.0223 / 0.0401; systemic leaves 0 / 0 / 0
* GGAAACCGCGAGAGC (pool 0.320) -> inoculated region 0.311 / 0.305 / 0.419; leaf margin 0.113 / 0.156 / 0.140; systemic leaves 0.0322 / 0 / 0

Data from the supplement of Wu et al. 2024, doi:10.1371/journal.ppat.1012142.